A mixed list of measured activities; the numbers were collected in NIAID ChemDB.

Shared fields: toxicity to cultured cells; cell line: VERO; endpoint: CC50

CCn is the concentration with n% toxicity to the cells. Lines come from different laboratories, so protocols vary.

| compound | result |
|---|---|
| O=C(Cc1ccccc1)N[C@@H]1C(=O)N2C3=C(CSC12)CN(C(=O)c1ccc(F)cc1)OC3=O | >128 µM |
| CCCC(=O)Nc1nc(N)nc2c1ncn2[C@H]1CO[C@@H](COP(=O)(N[C@@H](C)C(=O)OCC)Oc2ccccc2)O1 | >100 µM |
| Clc1ccc(CNc2cccc(-n3ccnc3)c2)cc1 | 8 µg/mL |
| O=c1[nH]cnc2c1ncn2O[C@H]1CS[C@@H](CO)O1 | >100 µg/mL |
| CCc1ccccc1NC(=O)c1c(C)n([O-])c2cc(Cl)c(Cl)cc2[n+]1=O | >30 µg/mL |
| CC1(C)[C@@H](CO)CC[C@@]1(C)Cn1cnc2c(N)ncnc21 | >400 µg/mL |
| COc1ccc(C(=O)N(O)CC2=C(C(=O)O)N3C(=O)[C@@H](NC(=O)Cc4ccccc4)C3SC2)cc1 | >128 µM |
| CC#Cc1cn([C@@H]2O[C@H](COP(=O)(NCCCCCCCCCCCC)Oc3ccccc3)[C@@H](O)[C@@H]2O)c(=O)[nH]c1=O | 80 µM |
| CC1=CC(=O)C=C(C/C=C(\C)CC/C=C(\C)CC/C=C(\C)CC[C@@H](C)C(C)(C)O)C1=O | 35 µM |
| CCn1cc(C(=O)O)c(=O)c2cc(F)c(N3CCN(CC(=O)c4ccccc4)CC3)c(F)c21 | >10 µg/mL |
| C#Cc1cn([C@H]2C[C@H](O)[C@@H](CO)S2)c(=O)[nH]c1=O | 33 µM |
| C#Cc1cn([C@H]2C[C@H](O)[C@@H](CO)O2)c(=O)[nH]c1=O | 1.6 µM |
| CC1(C)[C@@H](CO)CC[C@@]1(C)Cn1nnc2c(N)ncnc21 | >400 µg/mL |
| O[C@@H](c1cc(C(F)(F)F)nc2c(C(F)(F)F)cccc12)[C@H]1CCCCN1 | 38.1 µM |
| Cc1c(C(=O)NCc2ccc3c(c2)OCO3)[n+](=O)c2cc(Cl)ccc2n1[O-] | >40 µg/mL |
| CC(C)(C)c1cn([C@H]2C[C@H](O)[C@@H](CO)S2)c(=O)[nH]c1=O | 475 µM |
| COc1ncnc2c1ncn2O[C@H]1CO[C@@H](CO)O1 | >100 µg/mL |
| Cn1c(NNc2nc(Nc3cccc([N+](=O)[O-])c3)nc(Nc3cccc([N+](=O)[O-])c3)n2)nc(-c2ccc(Cl)cc2)c(C#N)c1=O | 9 µg/mL |
| CCn1cc(C(=O)O)c(=O)c2cc(F)c(N3CCN(CC(C)=O)CC3)c(F)c21 | >10 µg/mL |
| Cc1c(C(=O)NCc2ccc(C(F)(F)F)cc2)[n+](=O)c2cc(Cl)ccc2n1[O-] | >40 µg/mL |
| CN(C)CCNc1cc(C(F)(F)F)nc2c(C(F)(F)F)cccc12 | 52 µM |
| CCCCCC(=O)Nc1nc(N)nc2c1ncn2[C@H]1CO[C@@H](COP(=O)(N[C@@H](C)C(=O)OCC)Oc2ccccc2)O1 | >100 µM |
| Cc1c(CN2CCN(C)CC2)cc(-c2ccccc2)n1-c1ccc(Cl)cc1 | 4 µg/mL |
| Cn1c(NNc2nc(Nc3cc(Cl)cc(Cl)c3)nc(Nc3cc(Cl)cc(Cl)c3)n2)nc(-c2ccccc2)c(C#N)c1=O | 13 µg/mL |
| C[C@H]([C@@H]1CC[C@H](C)[C@@H](O)O1)[C@H]1CC[C@@]2(C)C3=C(CC[C@]12C)[C@@]1(C)CCC(=O)C(C)(C)C1CC3 | >100 µg/mL |
| CC1(C)[C@@H](CO)CC[C@@]1(C)Cn1cnc2c(=O)[nH]cnc21 | >400 µg/mL |
| ONc1cc(C(F)(F)F)nc2c(C(F)(F)F)cccc12 | >128 µM |
| CCCc1cn([C@H]2C[C@H](O)[C@@H](CO)S2)c(=O)[nH]c1=O | >100 µM |
| CC#Cc1cn([C@@H]2O[C@H](COP(=O)(O)OCC(Cl)(Cl)Cl)[C@@H](O)[C@@H]2O)c(=O)[nH]c1=O | 185 µM |
| Cc1c(C(=O)NCc2ccc(Br)cc2)[n+](=O)c2cc(Cl)ccc2n1[O-] | >40 µg/mL |
| FC(F)(F)c1cc(NCc2ccccn2)c2cccc(C(F)(F)F)c2n1 | 35 µM |
| CN1CCN(c2ccccc2NCc2ccc(Cl)cc2)CC1 | 8 µg/mL |
| CCCCCCCCCCCCCCCC(=O)Nc1nc(N)nc2c1ncn2[C@H]1CO[C@@H](COP(=O)(N[C@@H](C)C(=O)OCC)Oc2ccccc2)O1 | >100 µM |
| C[C@H]([C@@H]1CC[C@H](C)C(=O)O1)[C@H]1CC[C@@]2(C)C3=C(CC[C@]12C)[C@@]1(C)CC[C@@H](O)C(C)(C)C1CC3 | >100 µg/mL |
| COC(=O)C(Cc1c[nH]c2ccccc12)NP(=O)(O)OCC1C/C1=C/n1cnc2c(N)ncnc21 | 91 µM |
| Nc1ncnc2c1ncn2O[C@@H]1CS[C@@H](CO)O1 | >100 µg/mL |
| C[C@]1(Cn2cnc3c(=O)[nH]c(N)nc32)[C@H](COCP(=O)(O)O)C1(F)F | >100 µM |
| Cc1ccc(Nc2nc(NNc3nc(-c4ccccc4)c(C#N)c(=O)n3C)nc(Nc3ccc(C)cc3C)n2)c(C)c1 | 8 µg/mL |
| O=c1[nH]cnc2c1ncn2[C@@H]1C[C@@H](F)[C@H](CO)O1 | >100 µM |
| CC#Cc1cn([C@@H]2O[C@H](COP(=O)(OCC)Oc3ccccc3)[C@@H](O)[C@@H]2O)c(=O)[nH]c1=O | >500 µM |
| O=c1[nH]c(=O)n([C@H]2C[C@H](O)[C@@H](CO)S2)cc1C12CC3CC(CC(C3)C1)C2 | >125 µM |
| O=C(Cc1ccccc1)N[C@@H]1C(=O)N2C3=C(CSC12)CN(C(=O)c1ccc(C(F)(F)F)cc1)OC3=O | >128 µM |
| CN1CCN(c2ccc(NCc3ccc(Cl)cc3)cc2)CC1 | 4 µg/mL |
| CC#Cc1cn([C@@H]2O[C@H](COP(=O)(OCC(Cl)(Cl)Cl)Oc3ccccc3)[C@@H](O)[C@@H]2O)c(=O)[nH]c1=O | >125 µM |
| O=c1[nH]cnc2c1ncn2O[C@@H]1CS[C@@H](CO)O1 | >100 µg/mL |
| Nc1nc(=O)n([C@@H]2O[C@H](CO)[C@@H](CO)[C@@H]2F)cc1F | ≥100 µM |
| CCCCCCCC(=O)N(O)CC1=C(C(=O)O)N2C(=O)[C@@H](NC(=O)Cc3ccccc3)C2SC1 | 14.6 µM |
| CCc1cn([C@@H]2O[C@H](CO)[C@@H](O)[C@@H]2F)c(=O)[nH]c1=O | >200 µM |
| Nc1ncnc2c1ncn2[C@@H]1C[C@@H](F)[C@H](CO)O1 | >100 µM |
| CCCCCCCCCCCC(=O)Nc1nc(N)nc2c1ncn2[C@H]1CO[C@@H](COP(=O)(N[C@@H](C)C(=O)OCC)Oc2ccccc2)O1 | 45 µM |
| O=c1[nH]c(=O)n([C@H]2C[C@H](O)[C@@H](CO)S2)cc1CCCl | >200 µM |
| Nc1ccn([C@@H]2O[C@H](CO)C=C2F)c(=O)n1 | >100 µM |
| Cc1c(CN2CCSCC2)cc(-c2ccccc2)n1-c1ccc(Cl)cc1 | 8 µg/mL |
| CN[C@@H]1[C@H](O[C@H]2[C@H](O[C@H]3[C@H](O)[C@@H](O)[C@H](N=C(N)N)[C@@H](O)[C@@H]3N=C(N)N)O[C@@H](C)[C@]2(O)C=O)O[C@@H](CO)[C@H](O)[C@H]1O | >64 µg/mL |
| CC#Cc1cn([C@@H]2O[C@H](COP(=O)(O)Oc3ccc(F)cc3)[C@@H](O)[C@@H]2O)c(=O)[nH]c1=O | >500 µM |
| Nc1ccn([C@@H]2S[C@H](CO)C=C2F)c(=O)n1 | >100 µM |
| C[C@]1(Cn2cnc3c(=O)[nH]c(N)nc32)[C@@H](COCP(=O)(O)O)C1(F)F | >100 µM |
| CC#Cc1cn([C@@H]2O[C@H](COP(=O)(N[C@@H](C)C(=O)OC)Oc3ccccc3)[C@@H](O)[C@@H]2O)c(=O)[nH]c1=O | >500 µM |
| CCN(CC)CCCOc1c2ccoc2cc2oc(=O)ccc12 | 5.2 µg/mL |
| OC[C@@H]1C[C@H](n2cnc3c(=S)nc[nH]c32)[C@@H](O)[C@H]1O | >100 µM |
| CCCCCCCC(=O)Nc1nc(N)nc2c1ncn2[C@H]1CO[C@@H](COP(=O)(N[C@@H](C)C(=O)OCC)Oc2ccccc2)O1 | 87 µM |
| O=C(Nc1cccc(N2CCSCC2)c1)c1ccc(Cl)cc1 | 32 µg/mL |
| Cc1ccc(C(=O)N(O)CC2=C(C(=O)O)N3C(=O)[C@@H](NC(=O)Cc4ccccc4)C3SC2)cc1 | >128 µM |
| C#CCc1cn([C@H]2C[C@H](O)[C@@H](CO)S2)c(=O)[nH]c1=O | 492 µM |
| Nc1ccn([C@H]2O[C@@H](CO)C=C2F)c(=O)n1 | >100 µM |
| Clc1ccc(CNc2ccc(N3CCOCC3)cc2)cc1 | 16 µg/mL |
| C[C@H]([C@@H]1CC[C@H](C)C(=O)O1)[C@H]1CC[C@@]2(C)C3=C(CC[C@]12C)[C@@]1(C)CCC(=O)C(C)(C)C1CC3 | >100 µg/mL |

5 of the rows above, restated:

| compound | result |
|---|---|
| Cc1ccc(Nc2nc(NNc3nc(-c4ccccc4)c(C#N)c(=O)n3C)nc(Nc3ccc(C)cc3C)n2)c(C)c1 | 8 µg/mL |
| C[C@]1(Cn2cnc3c(=O)[nH]c(N)nc32)[C@H](COCP(=O)(O)O)C1(F)F | >100 µM |
| C[C@H]([C@@H]1CC[C@H](C)C(=O)O1)[C@H]1CC[C@@]2(C)C3=C(CC[C@]12C)[C@@]1(C)CC[C@@H](O)C(C)(C)C1CC3 | >100 µg/mL |
| C#Cc1cn([C@H]2C[C@H](O)[C@@H](CO)S2)c(=O)[nH]c1=O | 33 µM |
| CCCCCCCC(=O)N(O)CC1=C(C(=O)O)N2C(=O)[C@@H](NC(=O)Cc3ccccc3)C2SC1 | 14.6 µM |